{"source": "paper PMC4810252", "proteins": {"B1": {"name": "BST-2/tetherin: N92A (protein)", "parent chain": "MASTSYDYCRVPMEDGDKRCKLLLGIGILVLLIIVILGVPLIIFTIKANSEACRDGLRAVMECRNVTHLLQQELTEAQKGFQDVEAQAATCNHTVMALMASLDAEKAQGQKKVEELEGEITTLNHKLQDASAEVERLRRENQVLSVRIADKKYYPSSQDSSSAAAPQLLIVLLGLSALLQ"}, "B2": {"name": "BST-2/tetherin: N65/92A (protein)", "parent chain": "B1 parent chain"}, "B3": {"name": "BST-2/tetherin: N65A (protein)", "parent chain": "B1 parent chain"}, "B4": {"name": "BST-2/tetherin: N65,92A (protein)", "parent chain": "B1 parent chain"}}, "details_in_all_cases": "glycan lost; control: wild type", "key": {"[1]": {"test": "confocal co-localisation, stable 293T"}, "[2]": {"test": "virion p24 Western blot, stable and transient 293T"}, "[3]": {"test": "confocal co-localisation, transfected 293T"}}, "data": [{"protein": "B1", "values": [{"measurement": "localisation_or_trafficking", "setting": "[1]", "result": "no change"}, {"measurement": "other: restriction of virus release", "setting": "[2]", "result": "decreases"}]}, {"protein": "B2", "values": [{"measurement": "localisation_or_trafficking", "setting": "[1]", "result": "no change"}, {"measurement": "other: restriction of virus release", "setting": "[2]", "result": "decreases"}]}, {"protein": "B3", "values": [{"measurement": "other: restriction of virus release", "setting": "[2]", "result": "no change"}]}, {"protein": "B4", "values": [{"measurement": "localisation_or_trafficking", "setting": "[3]", "result": "increases"}]}]}
